Laboratory results taken from patent US10098904B2, “Zidovudine combination therapies for treating microbial infections” (HELPERBY THERAPEUTICS LIMITED, priority 2014, dated 2018).
Like-named read-outs stand apart in the source and are kept apart here.

Experiments:
[1] = tested on: NDM-1 Klebsiella pneumonia BAA2472
[2] = tested on: NDM-1 Klebsiella pneumonia BAA2473
[3] = drug alone, log phase, 24 hours incubation
[4] = in combination with 2 μg/ml of rifampicin

Colistin
MIC [1, 3]: 1 µg/mL | MIC of colistin in combination with rifampicin [1, 4]: 0.125 µg/mL | reduction of colistin MIC ([2]; HT0120663 at 0.25 μg/ml added, compared with rifampicin and colistin combination only): 4 fold | reduction of colistin MIC ([2]; HT0120663 at 0.5 μg/ml added, compared with rifampicin and colistin combination): 8 fold | MIC (NDM-1 E. coli BAA2471; [3]): 1 µg/mL | MIC of colistin in combination with rifampicin (NDM-1 E. coli BAA2471; [4]): 0.125 µg/mL
